In publication PMC8791477, “Evaluation of SARS-CoV-2 entry, inflammation and new therapeutics in human lung tissue cells” (PLoS Pathogens, 2022):

System: ACE2 expression
Experiment: Modulation of ACE2 expression in enriched AT-II cells of HLT (flow cytometry)
Settings: 20h, IL-1β 10 ng/ml, IL-10 and GM-CSF 100 ng/ml, IFN 100 U/ml

Molecule: IFN-α2
- ACE2 expression in enriched AT-II cells after immune stimuli (in words): did not impact ACE2 protein production

B1: IFN-β1 (protein, UniProt P01574 22-187, looked up)
Interferon beta: MSYNLLGFLQRSSNFQCQKLLWQLNGRLEYCLKDRMNFDIPEEIKQLQQFQKEDAALTIYEMLQNIFAIFRQDSSSTGWNETIVENLLANVYHQINHLKTVLEEKLEKEDFTRGKLMSSLHLKRYYGRILHYLKAKEYSHCAWTIVRVEILRNFYFINRLTGYLRN
- ACE2 expression in enriched AT-II cells after immune stimuli (in words): did not impact ACE2 protein production
